The record followed here is patent publication US7309494B2 (Pierre Fabre Medicament, priority 2001, dated 2007).

The nature of this data set: general procedure: Fmoc solid-phase peptide synthesis; Fmoc-L-Pro resin (G7a); hydroxymethylphenoxymethyl (HMP) resin preloaded with Lys(Boc), 0.70 mmol/g (G20a). As to conditions: oxidative folding step, several disulfide bridges, sequence written open.

“And” between values parts separate entries of the source, which are not always exact repeats. Equal values may be shown once.

On to “MEFQ140TQPSKPTTKQRQNKPPNKPNNDFHFEVFNFVPC173SIC176SNNPT C182WAIC186KRIP190S144KPTTKQRQNKPPNK158”, for which, for the setting “RP-HPLC”, the “final HPLC purity” value was above 90%. For the same substance, where the note is “run 1”, the oxidative folding yield was 22% and 44%.
